In this experiment the test system is S. enterica typhimurium tolC KO. The experiment is described as follows: growth AUC normalised to DMSO control (median) (fraction of control); higher = less growth inhibition, active = hit call of the paper. Conditions: 20 µM. The method in brief: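 Area under the growth curve, calculated by the trapezoidal rule up to entry into stationary phase, was normalised to vehicle wells on the same plate. Strains had been passaged twice overnight without oxygen and then grown in mGAM in 96-well plates from OD578 0.01, each with an approved-drug library compound at 20 μM in 1% DMSO. OD578 was read hourly over 24 h in an anaerobic incubator, and the median of three biological replicates is given.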

The structures appear in SMILES notation. What follows is the remainder of the data, with few or none of the hits.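 How the source made its calls: active = normalised median growth AUC below 0.1 of DMSO control; inactive = AUC 0.1 or higher.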
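Further: active when median AUC fell below 0.1.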

For the compound `COc1cc(Br)c(C[N+]2(CCOCCC3CCC4CC3C4(C)C)CCOCC2)cc1OC` (stereo unspecified) [Pinaverium bromide], the “growth AUC normalised to DMSO control” value is inactive: 0.573.

These data come from the supplement of paper PMC12350171.
